Compound potency records, mixed from different reports. Data source: NIAID ChemDB in PubChem.

Common to all: whole-cell or culture tests; species: HIV-1; read-out: EC50

Blank or dashed fields: not listed here. ECn: concentration that inhibits the pathogen or its effect by n%. Neighbouring rows are from separate reports.

structure,cells,method,strain or isolate,mutations,conditions,result
CC(C)[C@H](NC(=O)OCc1ccccc1)C(=O)N[C@@H](Cc1ccccc1)[C@@H](O)[C@H](O)[C@H](Cc1ccccc1)NC(=O)[C@@H](NC(=O)OCc1ccccc1)C(C)C,PBLC,p24,D34,,,0.1 µM
CC[C@H](C)[C@H](NC(=O)[C@@H]1CCCN1C[C@@H](O)[C@H](Cc1ccccc1)NC(=O)[C@H](CC(N)=O)NC(=O)[C@H](CC(C)C)NC(=O)[C@H](CO)NC(C)=O)C(=O)N[C@H](C(=O)OC)C(C)C,CBMC(PHA) + CBMC,RT activity,TC354,,4 d,>10 µM
C[C@H]1C[C@]1(Cn1cnc2cnc(N)nc21)OCP(=O)(OCOC(=O)C(C)(C)C)OCOC(=O)C(C)(C)C,HT4 + HeLa,plaque count,NL4-3,,,<100 µM
Nc1nc2nc[nH]c2c(=O)[nH]1,MOLT4 + MOLT-4,p24,IIIB,,,>300 µM
CCOC(=O)c1ccc(NC(=O)[C@H]2C[C@H](CC(C)C)N[C@]23C(=O)Nc2ccc(C)cc23)cc1,Primary macrophages,p24 / ELISA,pNF462,,10% FBS,8.9 µM
CC(C)[C@H](NC(=O)[C@H](C)N)C(=O)NCC(=O)O,HeLa + HELA CD4+,syncytia,BH10,,,~750 µM
CCCCCCCCCCCCCCCCCCCCCCC(=O)O[C@@H]1[C@@H](C)[C@@]2(O)[C@@H](C=C(COC(C)=O)C[C@]3(O)C(=O)C(C)=C[C@@H]23)[C@@H]2C(C)(C)[C@]12O,C8166,p24 / ELISA,RF,PI-resistant (V82F I84V),,0.396 µM
O=c1cc[nH]c(=O)[nH]1,MOLT4 + MOLT-4,p24,IIIB,,,>4000 µM
Cc1ccnc2c1NC(=O)c1cccnc1N2C1CC1,MAGI + MAGI-CCR5,β-galactosidase,HE-NEV,,3 d,>1000 µM
Nc1ncnc2c1ncn2[C@@H]1O[C@H](CO)C[C@@H]1F,MT-2,p24,P119S(RT-P119S),RT-P119S,,23 µM
Nc1ncn([C@@H]2O[C@H](CO)[C@@H](O)[C@H]2O)c(=O)n1,CEM-GFP,flow cytometry,NL4-3,,,112 µM
CC[C@H](C)[C@H](NC(=O)[C@@H]1CCCN1C[C@H](O)[C@H](Cc1ccccc1)NC(=O)[C@H](CC(N)=O)NC(=O)[C@H](CC(C)C)NC(=O)[C@H](CO)NC(C)=O)C(=O)N[C@H](C(=O)OC)C(C)C,CBMC(PHA) + CBMC,RT activity,TC354,,4 d,>10 µM
O=c1[nH]cnc2c1ncn2[C@H]1CC[C@@H](CO)O1,HT4 + HT4 LacZ-1,plaque count,RTMC(181 184) (RT-D67N K70R Y181C M184V 215F 219Q),RT-D67N K70R Y181C M184V T215F K219Q,,2.04 µM
Cc1cn([C@H]2C[C@H](N=[N+]=[N-])[C@@H](CO)O2)c(=O)[nH]c1=O,MT-2,p24,L74V(RT-L74V),RT-L74V,,0.015 µM
COc1oc([C@H]2C/C(=C/C(C)=C/c3ccc(-c4ccccc4)cc3)CO2)c(C)c(=O)c1C,PBMC + LC5-RIC,fluorescence,LAI,,,0.0539 µM
COc1cccc2cc(C(=O)N[C@@H](CC(N)=O)C(=O)N[C@@H](Cc3ccccc3)[C@H](O)C(=O)N3C[C@@H](Cl)C[C@H]3C(=O)NC(C)(C)C)oc12,MOLT-4/HIV-1(IIIB) + MOLT-4,p24,IIIB,,,<0.58 µM
Cc1cc(S(N)(=O)=O)ccc1NC(=O)COc1ccc(Cl)cc1C(=O)c1cc(Cl)cc(C#N)c1,MAGI,β-galactosidase,NNRTI-resistant (RT V108I),RT-V108I,,0.0009 µM
Nc1ncnc2c1ncn2CCOCP(=O)(O)O,MT-2,p24,P119S(RT-P119S),RT-P119S,,1.1 µM
C[C@H]1C[C@]1(Cn1cnc2cnc(N)nc21)OCP(=O)(O)O,HT4 + HeLa,plaque count,NL4-3,,,>100 µM
COC(=O)c1ccc(/C=C(C)/C=C2\CO[C@@H](c3oc(OC)c(C)c(=O)c3C)C2)cc1,PBMC + LC5-RIC,fluorescence,LAI,,,4.08 µM
CC[C@H](C)[C@H](NC(=O)[C@H](Cc1ccccc1)NC[C@@H](O)[C@H](Cc1ccccc1)NC(=O)[C@@H](NC(=O)[C@H](CC(C)C)NC(C)=O)C(C)C)C(=O)N[C@H](C(N)=O)C(C)C,CBMC(PHA) + CBMC,RT activity,TC354,,4 d,>10 µM
O=C(NCc1ccc(F)cc1)c1nc(N2CCCCS2(=O)=O)c2cccnc2c1O,,p24,NL4-3,,,0.004 µM
Cc1nc(S(N)(=O)=O)ccc1NC(=O)COc1ccc(Cl)cc1C(=O)c1cc(Cl)cc(C#N)c1,HeLa + HeLa-MAGI,β-galactosidase,HXB2,,,0.001 µM
CC(C)[C@H](NC(=O)[C@H](Cc1cccc2ccccc12)CS(=O)(=O)C(C)(C)C)C(=O)NC[C@@H](O)[C@H](O)CNC(=O)[C@@H](NC(=O)[C@H](Cc1cccc2ccccc12)CS(=O)(=O)C(C)(C)C)C(C)C,PBLC,p24,D34,,,10 µM
COc1ccc(CN[C@@H](C(=O)N[C@H]2c3ccccc3C[C@H]2O)[C@H](O)[C@H](Cc2ccccc2)NC(=O)[C@@H](NC(=O)OCc2ccccc2)C(C)(C)C)cc1,Primary monocytes + Monocyte,p24,BaL,,,0.031 µM
Cc1cn([C@H]2C[C@H](N=[N+]=[N-])[C@@H](CO)O2)c(=O)[nH]c1=O,MAGI + MAGI-CCR5,β-galactosidase,HE-NEV,,3 d,0.013 µM
CC[C@H](C)[C@@H]1NC(=O)[C@@H](NC[C@@H](O)[C@H](Cc2ccccc2)NC(=O)[C@@H](NC(=O)c2ccc3ccccc3n2)C(C)C)Cc2ccc(cc2)OCCCNC1=O,CBMC(PHA) + CBMC,RT activity,TC354,,4 d,0.1 µM
CCCCCCCCCCCCCCC[C@@H](O)[C@@H](N)CO,TZM-bl + HL2/3,luciferase / cell fusion,,,,>1.5 µM
C=C1COC(c2oc(OC)c(C)c(=O)c2C)C1,PBMC + LC5-RIC,fluorescence,LAI,,,>10 µM
Cc1cc(N2CCS(=O)CC2)ccc1NC(=O)COc1ccc(Cl)cc1C(=O)c1ccccc1C#N,HeLa + HeLa-MAGI,β-galactosidase,HXB2,,,1.5 µM
CC1(C)CC[C@]2(CO)CC[C@]3(C)C(=CCC4[C@@]5(C)CC[C@H](O)C(C)(C)C5CC[C@]43C)C2C1,HOS.R5 + HOS,GFP,IIIB,,,>45.2 µM
Nc1ccn([C@@]23C[C@@H]2[C@@H](CO)CO3)c(=O)n1,HOS-13,luciferase,,,,23 µM
C#Cc1ccc(Nc2nccc(Oc3c(C)cc(-c4cn(CCC(=O)OC)nn4)cc3C)n2)cc1,MT-4,MTT,IIIB,L100I,,5.06 µM
CN(C)c1cccc2c(S(=O)(=O)N3CCSC3c3cccnc3)cccc12,MAGI + MAGI-CCR5,β-galactosidase,IIIB,,3 d,4.614 µM
O=c1[nH]c(=O)n([C@H]2C[C@H](F)[C@@H](CO)O2)cc1Cl,CD4+HELA + HeLa,plaque count,RT L74V (ddI- ddC-resistant),RT-L74V,,13 µM
CC(=O)SCCOP(=O)(OCCSC(C)=O)OC[C@@H]1CC[C@H](n2cnc3c(N)ncnc32)O1,Monocytes/macrophages,,,,,0.00001 µM
COc1cc(OC)cc(C(=O)c2cc(Cl)ccc2OCC(=O)Nc2ccc(S(N)(=O)=O)cc2C)c1,HeLa + HeLa-MAGI,β-galactosidase,HXB2,,,0.016 µM
COc1oc([C@H]2C/C(=C/C(C)=C/c3ccc(C(C)(C)C)cc3)CO2)c(C)c(=O)c1C,PBMC + LC5-RIC,fluorescence,LAI,,,1.261 µM
CC[C@H](C)[C@H](NC(=O)c1ccccc1SSc1ccccc1C(=O)N[C@H](C(=O)O)[C@@H](C)CC)C(=O)O,Macrophage,p24 / RT activity,BaL,,,24 µM
Cc1cn([C@H]2C[C@H](N=[N+]=[N-])[C@@H](COP(=O)(OCCSC(=O)C(C)(C)C)OCCSC(=O)C(C)(C)C)O2)c(=O)[nH]c1=O,CEM + CEM TK-,RT activity,LAI,,,0.45 µM
Cc1cc(Cl)cc(C(=O)c2cc(Cl)ccc2OCC(=O)Nc2ccc(S(N)(=O)=O)cc2C)c1,HeLa + HeLa-MAGI,β-galactosidase,HXB2,,,0.0012 µM
Nc1ccn([C@H]2CC[C@@H](CO)O2)c(=O)n1,HT4 + HT4 LacZ-1,plaque count,HXB2,RT-Y181C M184V,,0.87 µM
Cc1occc1C(=S)Nc1ccc(Cl)c(/C=N/OC(C)(C)C)c1,CEM + CEM-SS,cytopathic effect / XTT,UC10/costatolide-resistant (RT K103N),RT-K103N,,7.3 µM
CC(C)(C)S(=O)(=O)C[C@@H](Cc1cccc2ccccc12)C(=O)N[C@@H](Cc1cnc[nH]1)C(=O)N[C@@H](Cc1ccccc1)[C@@H](O)[C@H](O)[C@H](Cc1ccccc1)NC(=O)[C@H](Cc1cnc[nH]1)NC(=O)[C@H](Cc1cccc2ccccc12)CS(=O)(=O)C(C)(C)C,PBLC,p24,D34,,,>10 µM
CCCCCCCCCCCCCCCCCOP(=O)(OC[C@H]1O[C@@H](O)[C@@H](O)[C@@H](O)[C@@H]1O)OC[C@H]1O[C@@H](n2cc(C)c(=O)[nH]c2=O)C[C@@H]1N=[N+]=[N-],CEM-C113 + CEM/C113,cytopathic effect / MTT,BRU,,7 d,<0.2 µM
Cc1cn([C@H]2C[C@H](N=[N+]=[N-])[C@@H](CO)O2)c(=O)[nH]c1=O,MT-4,MTT,IIIB,Y188L,,0.007 µM
CC(C)(C)[C@H](NC(=O)[C@H](Cc1cccc2ccccc12)CS(=O)(=O)C(C)(C)C)C(=O)N[C@@H](Cc1ccccc1)[C@@H](O)[C@H](O)[C@H](Cc1ccccc1)NC(=O)[C@@H](NC(=O)[C@H](Cc1cccc2ccccc12)CS(=O)(=O)C(C)(C)C)C(C)(C)C,PBLC,p24,D34,,,0.015 µM
Cc1cn([C@H]2C[C@H](N=[N+]=[N-])[C@@H](CO)O2)c(=O)[nH]c1=O,PBMC,p24,7898 CLADE B CLADE B,,,0.007 µM
C/C(=C/CC[C@@H](C)[C@H]1CC[C@@]2(C)C3CCC4C(C)(C)C(=O)CC[C@@]45CC35CC[C@]12C)C(=O)O,HOS.R5 + HOS,GFP,IIIB,,,>44.1 µM
C/C=C/CSc1cc(NC(=S)c2ccsc2C)ccc1Cl,CEMx174 + CEM,cytopathic effect / XTT,IIIB,,,0.1 µM
Cc1cn([C@H]2C[C@H](N=[N+]=[N-])[C@@H](CO)O2)c(=O)[nH]c1=O,CEM-C113 + CEM/C113,cytopathic effect / MTT,BRU,,7 d,<0.2 µM
COc1oc([C@H]2C/C(=C/C(C)=C/c3ccc(N(C)C)cc3)CO2)c(C)c(=O)c1C,PBMC + LC5-RIC,fluorescence,LAI,,,0.0146 µM
CCOC(=O)c1ccc(NC(=O)[C@@]2(C)C[C@H](C(C)C)N[C@]23C(=O)Nc2ccc(C)cc23)cc1,Primary macrophages,p24 / ELISA,pNF462,,10% FBS,5.5 µM
CC(C)(O)c1cccc(CN2C(=O)N(Cc3cccc(C(C)(C)O)c3)[C@H](Cc3ccccc3)[C@H](O)[C@@H](O)[C@H]2Cc2ccccc2)c1,MT-2/MT-4 + MT-2,p24,HXB2,PR-V82F/184V,,<5.78 µM
O=c1[nH]cnc2nc[nH]c12,MOLT4 + MOLT-4,p24,IIIB,,,>1000 µM
O=c1[nH]cnc2c1ncn2[C@H]1CC[C@@H](CO)O1,MT-2,p24,HXB2D,,,1.2 µM
C#Cc1ccc(Nc2nccc(Oc3c(C)cc(-c4cn(Cc5ccc(C#N)cc5)nn4)cc3C)n2)cc1,MT-4,MTT,IIIB,,,0.076 µM
Cc1cc(S(N)(=O)=O)ncc1NC(=O)COc1ccc(Cl)cc1C(=O)c1cc(Cl)cc(C#N)c1,HeLa + HeLa-MAGI,β-galactosidase,HXB2,RT-Y181C,,0.002 µM
COc1oc([C@H]2C/C(=C/C(C)=C/c3cccc(C(F)(F)F)c3)CO2)c(C)c(=O)c1C,PBMC + LC5-RIC,fluorescence,LAI,,,0.0401 µM
Cn1cc(C(=O)N[C@@H](CC(N)=O)C(=O)N[C@@H](Cc2ccccc2)[C@H](O)C(=O)N2C[C@@H](Cl)C[C@H]2C(=O)NC(C)(C)C)c2ccccc21,MOLT-4/HIV-1(IIIB) + MOLT-4,p24,IIIB,,,<2.1 µM
C#Cc1ccc(Nc2nccc(Oc3c(C)cc(-c4cn(Cc5ccc(O)cc5)nn4)cc3C)n2)cc1,MT-4,MTT,RES056,,,>2.1 µM
Cc1cn([C@H]2CC[C@@H](CO)O2)c(=O)[nH]c1=O,CEM-C113 + CEM/C113,cytopathic effect / MTT,BRU,,7 d,<0.2 µM
Cc1ccnc2c1NC(=O)c1cccnc1N2C1CC1,CEM + CEM-SS,cytopathic effect / XTT,TIBO R82150-resistant (RT A98G V108I),RT-A98G V108I,,0.6 µM
Cc1cc(S(N)(=O)=O)ccc1NC(=O)COc1ccc(Cl)cc1C(=O)c1cccc(C#N)c1,HeLa + HeLa-MAGI,β-galactosidase,HXB2,,,0.0007 µM
C[n+]1cnc(N)c2[nH]cnc21,MOLT4 + MOLT-4,p24,IIIB,,,>426 µM

The last 5 rows once more:

structure,cells,method,strain or isolate,mutations,conditions,result
C#Cc1ccc(Nc2nccc(Oc3c(C)cc(-c4cn(Cc5ccc(O)cc5)nn4)cc3C)n2)cc1,MT-4,MTT,RES056,,,>2.1 µM
Cc1cn([C@H]2CC[C@@H](CO)O2)c(=O)[nH]c1=O,CEM-C113 + CEM/C113,cytopathic effect / MTT,BRU,,7 d,<0.2 µM
Cc1ccnc2c1NC(=O)c1cccnc1N2C1CC1,CEM + CEM-SS,cytopathic effect / XTT,TIBO R82150-resistant (RT A98G V108I),RT-A98G V108I,,0.6 µM
Cc1cc(S(N)(=O)=O)ccc1NC(=O)COc1ccc(Cl)cc1C(=O)c1cccc(C#N)c1,HeLa + HeLa-MAGI,β-galactosidase,HXB2,,,0.0007 µM
C[n+]1cnc(N)c2[nH]cnc21,MOLT4 + MOLT-4,p24,IIIB,,,>426 µM